Holding throughout (experiment): pseudovirus neutralization IC50; higher = weaker neutralization
The target of assay [1] is SARS-CoV-2 Omicron BA.1 spike pseudovirus. The method, then: (§1)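 Single-round VSV luciferase pseudovirus mixed with antibody dilutions for 1 h and put on Huh-7 cells for about a day; IC50 from the dose curve.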
Assay [2] deals with SARS-CoV-2 Omicron BA.2 spike pseudovirus. The method, then: as §1
Assay [3] has as its target SARS-CoV-2 Omicron BA.2.75 spike pseudovirus. On the procedure: as §1
Assay [4] addresses SARS-CoV-2 Omicron BA.5 spike pseudovirus. On the procedure:
as §1

Assay [5] has as its target SARS-CoV-2 Omicron BQ.1.1 spike pseudovirus. On the procedure: as §1
Assay [6] concerns the target SARS-CoV-2 Omicron XBB spike pseudovirus. The method, then: as §1
Assay [7] deals with SARS-CoV-2 early D614G spike pseudovirus. The method, then:
as §1

Where a chain is given by its changes, count along the chain named. Human monoclonal antibodies against the spike receptor-binding domain (heavy:light variable regions). IC50 against pseudoviruses bearing the spike of naturally observed variants; lower = stronger; >10 µg/ml means not reached at the top dose. No active / inactive call. The stated detection limit is 0.0005 µg/ml; values near or below 0.001 µg/ml lie at the floor of the assay. Where only a bound is given, the exact number is not on record here.

B1: BD55-1499 (protein)
chain 1: QVQLQQWGAGLLKPSETLSLTCAVYGGSFTGYYWSWIRQPPGKGLEWIGEISHSGSTSYNPSLKSRVTISVDTSKNQFSLKLNSVTAADTAVYYCAADPAMVRGVIMGNWFDPWGQGTLVTVSS
chain 2: DIQMTQSPSSLSASVGDRVTITCRASQIISTYLNWYQQKPGKAPKLLIYATSSLQSGVPSRFSGSGSGTDFTLTISSLQPEDFATYYCQQSYVTPPYTFGQGTKLEIK
As for B1, the “pseudovirus neutralization IC50” value in assay [1], in assay [2], in assay [3], in assay [4], in assay [5] and in assay [6] was greater than 10 µg/mL throughout. Further, in assay [7], the “pseudovirus neutralization IC50” value was greater than 10 µg/mL.

B2: BD55-1453 (protein)
chain 1: EVQLIQSGTEVKKPGESLKISCKGSGYNFARYWIGWVRQMPGKGLEWVGIIYPGDSDTRYSPSFQGQVTISADKSINTAFLQWSSLKASDTAMYYCARRGVDMAALRVFDIWGRGTLVTVSS
chain 2: QSVLTQPPSVSEAPRQRVTISCSGSSSNIENNAVEWYQQLPGKAPKLLIYYDDLLPSGVSDRFSGSKSGTSASLAISGLQSEDEADYYCATWDDRLNGPVFGTGTKVTVL
Consider B2, for which the “pseudovirus neutralization IC50” value in assay [1] stood at 1.87 µg/mL; in assay [2] it was 1.21 µg/mL; in assay [3], 1.31 µg/mL; in assay [4], 2.5 µg/mL; in assay [5], 2.61 µg/mL; in assay [6], 1.29 µg/mL. For the same molecule, the “pseudovirus neutralization IC50” value in assay [7] was 1.49 µg/mL.

B3: BD55-1450 (protein)
chain 1: QVQLVQSGAEVKKPGSSVRVSCKVSGGTFSSYTISWVRQAPGQGLEWMGRIIPILDVANYPQKFQGRVTITADKSTSTAYMELSSLRSEDTAVYYCARLRYGSGLPYGVDVWGQGTTVTVSS
chain 2: DVQMTQSPSSLSASIGDRVTITCQASQDISNYLNWYQQKPGKAPNPLIYDASNLERGVPSRFSGSGSGTEFTFTISSLQPEDIATYYCQQYDNLPWTFGQGTKVEIK
For the molecule B3, the “pseudovirus neutralization IC50” value in assay [1], in assay [2], in assay [3], in assay [4], in assay [5] and in assay [6] was greater than 10 µg/mL throughout. Besides, the “pseudovirus neutralization IC50” value in assay [7] was 0.0238 µg/mL.

B4: BD55-1464 (protein)
chain 1: EVQLVESGGGLVQPGGSLRVSCSASGFTFSSYAIHWVRQAQGKGLEYVSAISSNGDITYYADSVKGRFFISRDNSKNTVYLQMSSLRAEDTAVYYCVKDVWGSYTYFDFWGQGTLVTVSS
chain 2: DIQLTQSPSSLSASVGDRVTITCRARQSITGYLNWYQQKPGKAPKVLIYATSTLQSGVPSRFSGSGSGTDFTLTISSLQLEDFATYWCQQSYTTPYTFGQGTKLEIK
Consider B4, for which the “pseudovirus neutralization IC50” value in assay [1], in assay [2], in assay [3], in assay [4], in assay [5] and in assay [6] was greater than 10 µg/mL throughout. For the same molecule, the “pseudovirus neutralization IC50” value in assay [7] is greater than 10 µg/mL.

B5: BD55-1451 (protein)
chain 1: EVQLVESGGGLIQPGGSLRLSCTASGVIVSKNYMNWVRQAPGKGLEWVSLIYSGGSTFYADSVRGRFTISRDNSKNTLYLQMNSLRAEDTAVYYCARDLVVYGMDVWGQGTTVTVSS
chain 2: DIQLTQSPSFLSAFVGDRVTITCRASQGISNYLAWYQQKPGKAPKLLIYGASTLQSGVPSRFSGSGSGTDFTLTISSLQPEDFATYYCQLLNSDRYTFGQGTKLEIK
For B5, the “pseudovirus neutralization IC50” value is 0.286 µg/mL in assay [1]; 0.26 µg/mL in assay [2]; 2.5 µg/mL in assay [3]; 0.145 µg/mL in assay [4]; greater than 10 µg/mL in assay [5]; greater than 10 µg/mL in assay [6]. Further, the “pseudovirus neutralization IC50” value in assay [7] stood at 0.00173 µg/mL.

B6: DXP-604 (protein)
chain 1: B5 chain 1 with T23A, V27I, K31S, N35T, L50V, R64K, N83S, V100G, V101P
chain 2: B5 chain 2 with F14S, N31S, Y32D, K45N, G50A, D70E, L90Q, R95L
In the case of B6, the “pseudovirus neutralization IC50” value was 0.285 µg/mL in assay [1]; 0.219 µg/mL in assay [2]; 5.92 µg/mL in assay [3]; 6.26 µg/mL in assay [4]; greater than 10 µg/mL in assay [5]; greater than 10 µg/mL in assay [6]. Besides, the “pseudovirus neutralization IC50” value in assay [7] worked out at 0.011 µg/mL.

B7: BD55-1472 (protein)
chain 1: QITLKESGPTLVKPTQTLTLTCSFSGFSLSTNGMGVGWIRQPPGKALEWLALIYWNDEKRYSPSVKTRLTITKGPSNYQVVLTMTNMDPVDTATYYCGHTYYYDNSGYSFDHWGPGTLVTVSS
chain 2: DIQMTQSPSSVSASVGDRVTITCRASQDIITWLAWYQQKPGKAPKLLIYDASILQSGVPSRFSGSGSGTDFTLTINSLQSEDFATYYCQQTNNFPVTFGQGTRLE
Consider B7, for which the “pseudovirus neutralization IC50” value in assay [1] came out at 0.654 µg/mL; in assay [2] it was 0.4 µg/mL; in assay [3], 0.255 µg/mL; in assay [4], 0.329 µg/mL; in assay [5], 0.803 µg/mL; in assay [6] it was 0.791 µg/mL. Besides, the “pseudovirus neutralization IC50” value in assay [7] amounted to 2.34 µg/mL.

The record behind these values is the supplement of paper PMC9931576.
